In patent US20240174728A1 (Shenzhen Turier Biotech Co., Ltd., priority 2021, published 2024):

Test: general procedure: Fmoc solid-phase peptide synthesis; Rink amide resin; benzotriazole-N,N,N',N'-tetramethyluronium hexafluorophosphate, 1-hydroxybenzotr
Conditions: whole synthesis, scale 0.25 mol

For “His-Aib-Gln-Gly-Thr-Phe-Thr-Ser-Asp-Lys(PEG2-PEG2-γGlu-CO(CH2)18CO2H)-Ser-Lys-Tyr-Leu-Glu-Aib-Lys-Ala-Ala-Gln-Asp-Phe-Val-Glu-Trp-Leu-Lys-Ala-Gly-Gly-Pro-Ser-Ser-Gly-Ala-Pro-Pro-Pro-Ser-NH2”, the “final HPLC purity” value was >95%.
